Anti-infective test results gathered from many reports (values: NIAID ChemDB through PubChem).

Shared fields: whole-cell or culture tests; organism: HIV-1

Rows are shuffled and stem from different studies.

compound	method	setting	strain	cells	mutations	endpoint	result
CC(=O)Oc1ccc(/C=C/C(=O)O[C@@H](C(=O)O)[C@@H](OC(=O)/C=C/c2ccc(OC(C)=O)c(OC(C)=O)c2)C(=O)O)cc1OC(C)=O	-	-	IIIB	MT-4	-	EC50	4 µM
CCOCn1c(Cc2ccccc2)c(C(C)C)c(=O)[nH]c1=O	cytopathic effect	-	IIIB	CEM	-	EC50	0.001 µg/mL
CCOc1ccc(Cc2cc(C3CCN(C[C@H]4CN([C@@H](C(=O)O)[C@H](C)CC)C[C@@H]4c4cccc(F)c4)CC3)n(CC)n2)cc1F	β-galactosidase	50% human serum	BaL	HeLa	-	EC90	0.033 µM
CCc1c(CC2CCCCC2)nc(SCC(=O)c2ccccc2)[nH]c1=O	ELISA	-	Clinical isolate	C8166	KM018	EC50	0.0418 µM
O=c1[nH]cnc2c1ncn2[C@H]1CC[C@@H](CO)O1	-	-	BCF11	PBMC	RT-A98G K103R	EC50	0.45 µM
CCN[C@H]1CO[C@@H]2OCC[C@H](OC(=O)N[C@@H](Cc3ccccc3)[C@H](O)CN(CC(C)C)S(=O)(=O)c3ccc4nc(NC5CC5)sc4c3)[C@@H]21	p24 / luminescence	-	NL4-3	MT-4	L10I I15V K20R L24I V32I M36I M46I I54V I62V L63P K70Q V82A L88M	EC50	0.0016 µM
C[C@H](Cn1cnc2c(N)nc(N)nc21)OCP(=O)(O)O	syncytia	-	IIIB	C8166	-	EC50	2.8 µM
CCn1nc(Cc2ccc(OC)c(C#N)c2)cc1C1CCN(C[C@H]2CN([C@@H](C(=O)O)C(C)(C)C)C[C@@H]2c2cccc(F)c2)CC1	β-galactosidase	50% human serum	BaL	HeLa	-	EC50	<0.033 µM
CCc1cc(NCc2nc3c(Cl)ccc(Cl)c3o2)c(=O)[nH]c1C	antigen	-	MFE30(RT-P236L)	MT-4	RT-P236L	EC50	<0.01 µM
CC(C)CN(C[C@@H](O)[C@H](Cc1ccccc1)NC(=O)O[C@H]1CCO[C@H]2OCC[C@H]21)S(=O)(=O)c1ccc2nc(NC3CC3)sc2c1	p24 / luminescence	-	NL4-3	MT-4	L10I I15V K20R L24I V32I M36I M46I L63P K70Q V82A I84V L89M	EC50	0.064 µM
CCn1nc(Cc2ccc(OC(C)(C)C)cc2)cc1C1CCN(C[C@H]2CN([C@@H](C(=O)O)C(C)C)C[C@@H]2c2cccc(F)c2)CC1	β-galactosidase	50% human serum	BaL	HeLa	-	EC90	0.1 µM
CN[C@H]1CO[C@@H]2OCC[C@H](OC(=O)N[C@@H](Cc3cccc(OC)c3)[C@H](O)CN(CC(C)C)S(=O)(=O)c3ccc4nc(NC(C)C)sc4c3)[C@@H]21	p24 / luminescence	-	NL4-3	MT-4	L10I I15V K20R L24I V32I M36I M46I I54V I62V L63P K70Q V82A L88M	EC50	0.0024 µM
C#C[C@]1(CO)O[C@@H](n2cnc3c(N)nc(F)nc32)C[C@@H]1O	fluorescence	-	Clinical isolate	MT4-GFP	C162Y/M184V	EC50	0.01333 µM
CCn1nc(Cc2ccc(OC3CC3)cc2)cc1C1CCN(C[C@H]2CN([C@@H](C(=O)O)C(C)C)C[C@@H]2c2cccc(F)c2)CC1	β-galactosidase	-	BaL	HeLa	-	EC50	<0.0012 µM
CC(C)Nc1cccnc1N1CCN(C(=O)c2cc3cc(NS(C)(=O)=O)ccc3[nH]2)CC1	MTT	-	IIIB	MT-4	Y188L	EC50	0.542 µM
CC(C)CN(C[C@@H](O)[C@H](Cc1cc(F)cc(F)c1)NC(=O)O[C@H]1CCO[C@H]2OCC[C@H]21)S(=O)(=O)c1ccc2nc(NC(C)C)sc2c1	p24 / luminescence	-	BaL	PBMC	-	EC50	0.0002 µM
CCOc1cccc(Cc2cc(C3CCN(C[C@H]4CN([C@@H](C(=O)O)[C@H](C)CC)C[C@@H]4c4cccc(F)c4)CC3)n(CC)n2)c1	β-galactosidase	50% human serum	BaL	HeLa	-	EC90	>0.3 µM
CC(C)CN(C[C@@H](O)[C@H](Cc1ccccc1)NC(=O)[C@H](CC(N)=O)NC(=O)c1ccc2ccccc2n1)C(=O)NC(C)(C)C	p24	-	NL4-3	MT-4	PR-V82T	EC95	0.1 µM
CO[P@](=O)(c1cc(C)cc(/C=C/C#N)c1)c1c(C(N)=O)[nH]c2ccc(Cl)c(F)c12	-	-	IIIB	H9	-	EC50	0.0006 µM
CC(C)=CCN1Cc2cc(Cl)cc3[nH]c(=S)n(c23)C[C@@H]1C	-	-	BCF07	PBMC	RT-A98G V106I Y181C	EC50	>6.25 µM
CC(C)Nc1cccnc1N1CCN(C(=O)c2cc3cc(NS(C)(=O)=O)ccc3[nH]2)CC1	syncytia	-	IIIB	CEM	RT-E138K	EC50	0.033 ± 0.011 µM
C[C@H](Cn1cnc2c(N)ncnc21)OCP(=O)(O)O	syncytia	-	HE	CEM	-	EC50	17 µM
Nc1ccn([C@H]2CC[C@@H](CO)O2)c(=O)n1	-	-	BCF01	PBMC	RT-A98G K103R Y181C	EC50	0.02 µM
COC(=O)[C@H](C)NP(=O)(OC[C@@H]1C=C[C@H](n2cc(C)c(=O)[nH]c2=O)O1)Oc1ccc(Br)cc1	p24	-	C140 NRTI resistant	PBMC	RT-M42L M184V T215Y	EC50	0.0025 µM
CCn1nc(Cc2ccc(F)cc2F)cc1C1CCN(C[C@H]2CN([C@@H](C(=O)O)C3CCCCC3)C[C@@H]2c2cccc(F)c2)CC1	β-galactosidase	-	BaL	HeLa	-	EC50	<0.0004 µM
CCN[C@H]1CO[C@@H]2OCC[C@H](OC(=O)N[C@@H](Cc3cccc(OC)c3)[C@H](O)CN(CC(C)C)S(=O)(=O)c3ccc4nc(NC(C)C)sc4c3)[C@@H]21	p24 / luminescence	-	NL4-3	MT-4	L10I I54V K20R L24I V32I L33F M36I M46I I54M L63P K70Q V82I I84V L89M	EC50	0.09 µM
CC(C)=CCN1c2cc(Cl)cc3[nH]c(=S)n(c23)C[C@@H]1C	-	-	-	MT-4	RT-L74V K103N	EC50	<0.8 µM
Cc1occc1C(=S)Nc1ccc(Cl)c(/C=N/OC(C)(C)C)c1	cytopathic effect	-	IIIB	CEM	RT-V106A	EC50	0.05 µg/mL
COC(=O)N[C@H](C(=O)N[C@@H](Cc1ccccc1)[C@@H](O)CN(Cc1ccc(-c2ccccn2)cc1)NC(=O)[C@@H](NC(=O)OC)C(C)(C)C)C(C)(C)C	p24 / luminescence	clinical isolate, multidrug-resistant	Clinical isolate	PBMC	L10I K14R L33I M36I M46I F53I K55R I62V L63P A71V G73S V82A L90M I93L	EC50	0.467 µM
CN[C@H]1CO[C@@H]2OCC[C@H](OC(=O)N[C@@H](Cc3ccccc3)[C@H](O)CN(CC(C)C)S(=O)(=O)c3ccc4nc(NC5CC5)sc4c3)[C@@H]21	p24 / luminescence	-	NL4-3	MT-4	-	EC50	0.0035 µM
Nc1ccn([C@@H]2CS[C@H](CO)O2)c(=O)n1	p24	-	1617-1 NRTI resistant recombinant	PBMC	RT-T69K K70G V75I F77L F116Y Q151M M184V	EC50	>10 µM
O=c1[nH]cnc2c1ncn2[C@H]1CC[C@@H](CO)O1	p24	-	HXB2D	MT-2	-	EC50	1.2 µM
Cc1cc(C#Cc2cccc(N)c2)cc(C)c1Oc1ccnc(NC2CCN(Cc3ccc(C#N)cc3)CC2)n1	MTT	-	IIIB	MT-4	L100I	EC50	>0.261 µM
CC[C@H](C)[C@H](C(=O)O)N1C[C@H](CN2CCC(c3cc(Cc4cccc(CN)c4)nn3CC)CC2)[C@@H](c2cccc(F)c2)C1	β-galactosidase	50% human serum	BaL	HeLa	-	EC90	0.011 µM
Cc1cn([C@H]2C[C@H](N=[N+]=[N-])[C@@H](CO)O2)c(=O)[nH]c1=O	p24	-	HXB2	MT-2	-	EC50	0.013 µM
Cc1cn([C@H]2C[C@H](N=[N+]=[N-])[C@@H](CO)O2)c(=O)[nH]c1=O	MTT	-	IIIB	MT-4	Y181C	EC50	0.005 µM
Cc1cn([C@@H]2O[C@H](CO[Si](C)(C)C(C)(C)C)C3(OS(=O)(=O)C=C3N)[C@H]2O[Si](C)(C)C(C)(C)C)c(=O)n(C)c1=O	syncytia	-	IIIB	CEM	RT-L100I	EC50	0.07 ± 0.017 µM
CCOc1ccc(Cc2cc(C3CCN(C[C@H]4CN([C@@H](C(=O)O)[C@@H](C)CC)C[C@@H]4c4cccc(F)c4)CC3)n(CC)n2)cc1F	β-galactosidase	50% human serum	BaL	HeLa	-	EC90	0.011 µM
Nc1ncnc2c1ncn2[C@@H]1O[C@H](CO)C[C@@H]1F	p24	-	M184V(RT-M184V)	MT-2	RT-M184V	EC50	4.8 µM
CC(C)(C)NC(=O)[C@@H]1CN(Cc2cccnc2)CCN1C[C@@H](O)C[C@@H](Cc1ccccc1)C(=O)N[C@H]1c2ccccc2C[C@H]1O	p24	-	1617-1 NRTI resistant recombinant	PBMC	RT-T69K K70G V75I F77L F116Y Q151M M184V	EC50	0.0205 µM
O=c1[nH]cnc2c1ncn2[C@@H]1O[C@H](CO)C[C@@H]1F	p24	-	P119S(RT-P119S)	MT-2	RT-P119S	EC50	15 µM
CC(C)CN(C[C@@H](O)[C@H](Cc1ccccc1)NC(=O)O[C@H]1CCOC1)S(=O)(=O)c1ccc(N)cc1	p24	-	NL4-3-P22 (PR D30N A71V)	MT-4	PR-D30N A71V	EC90	0.04 µM
Cc1cc(C#Cc2cccnc2)cc(C)c1Oc1ccnc(Nc2ccc(C#N)cc2)n1	MTT	-	IIIB	MT-4	Y188L	EC50	0.154 µM
O=C1N(Cc2ccc(CO)cc2)[C@H](Cc2ccccc2)[C@H](O)[C@@H](O)[C@@H](Cc2ccccc2)N1Cc1ccc(CO)cc1	p24	-	Isolate A PR L10V/T12I/G16E/R57K/I64V	PBMC	PR-L10V T12I G16E R57K I64V	EC95	0.2 µM
CCn1nc(Cc2ccc(OC)cc2)cc1C1CCN(C[C@H]2CN([C@@H](C(=O)O)C3CCCCC3)C[C@@H]2c2cccc(F)c2)CC1	β-galactosidase	-	BaL	HeLa	-	EC90	<0.00014 µM

An empty or dashed field is not shown. ECn: concentration that inhibits the pathogen or its effect by n%.